From US20230227512A1 come the findings set out here.

The experiment concerns the target BG505 SOSIP.664 HIV-1 Env ectodomain trimer. Briefly: SPR.

Usually Kd stands for a measure of binding affinity in units of concentration. Read a high Kd as a looser complex. As to “soluble CD4 (sCD4) (from UniProt P01730 26-208)”, the Kd amounted to 0.9 nM.
